Reference: PubChem BioAssay (NCATS)
The entries are a selection whose mix differs from that of the whole data set. Inconclusive results are not listed. The source made the active and inactive calls. Calls follow the shape of the dose curve; as a rule, active = well fitted inhibition curve with a large enough effect; inconclusive = small, poorly fitted or top-dose-only effect; inactive = flat fitted curve, though single readings scatter.

Experiments:
AS120 = test: qHTS profiling for inhibitors of Plasmodium falciparum proliferation (AID 504749);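 also: 0% = DMSO vehicle and full inhibition = artemisinin control; nearly all actives have a fitted effect of over 60% in size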; settings: P. falciparum in erythrocytes, SYBR Green DNA, 72 h; at 28.7 µM (top of the series)
Excerpt: (§1) NIH National Institute of Allergy and Infectious Diseases [NIAID] NIH Chemical Genomics Center [NCGC] MLPCN Grant: None Assay Provider: Xinzhuan Su, NIAID NCGC Assay Overview: Plasmodium falciparum is a virulent malarial parasite that kills 1-2 million people worldwide each year. Transmitted by mosquitoes, the sporozoite form of the parasite enters the blood stream to infect hepatocytes, where they become merozoites that infect red blood cells (erythrocytes). Within erythrocytes, merozoites begin a […] cycle of growth and division, after which the parasite is released to infect new red blood cells. Gametocytes, which form within erythrocytes as well, circulate in the bloodstream and are ingested by the mosquito, thereby completing the life cycle. […] Because mature erythrocytes lack DNA, only Plasmodium-derived DNA is detected.
(§2) NCGC Assay Protocol Summary: The SYBR Green viability assay was adapted from a method described previously (Plouffe et al., 2008). […] The following morning, fluorescence intensity at 485(14) nm excitation and 535(25) nm emission wavelengths was measured on an EnVision (Perkin Elmer) plate reader. Plate reads were normalized relative to the control inhibitor (0.29 uM artemisinin) and vehicle (DMSO) wells present on each plate and then corrected by an algorithm using vehicle-only control plates at the beginning and end of the compound plate stack.

TAB109 = test: as above; settings: P. falciparum in erythrocytes, SYBR Green DNA, 72 h; at 28.7 µM (top of the series)
Excerpt: as §1, §2

Compound	activity, negative = inhibition (AS120)	activity, negative = inhibition (TAB109)
OCCSCCO	inactive: 13.7%	–
CN(C)CCS	–	inactive: 15.5%
